Patent publication US20130071428A1

Legend:
[1] = biological target: F I G I T E L K K L E S K I N Z Z O (Clostridium tetani)
[2] = biological target: F I G I T E L K K L E S K I N K Z Z O (Clostridium tetani)
[3] = biological target: F I G I T E L K K L E S K I Z Z O (Clostridium tetani)
[4] = biological target: F I G I T E L K K L E S K I N K V Z Z O (Clostridium tetani)
[5] = biological target: F I G I T E L K K L E S K I N K V F Z Z O (Clostridium tetani)
[6] = biological target: peptide β-32 (Clostridium tetani)
[7] = biological target: peptide β-32 (Clostridium tetani); test: Tettox ELISA; same synthesis number reprinted under 'Without linker'
[8] = biological target: peptide β-32 (Clostridium tetani); test: Tettox ELISA, biotinylated peptide on streptavidin plate

TetaQuin® (antibody)
OD (column without a head) [1]: 0.64 OD | OD (column without a head) [2]: 0.65 OD | OD (column without a head) [3]: 0.79 OD | OD (column without a head) [4]: 0.68 OD | OD (column without a head) [5]: 1.16 OD | OD (column without a head) [6]: 1.16 OD | OD [7]: 1.3 OD | OD [8]: 1.3 OD
